Compound potency records, mixed from different reports. Data source: NIAID ChemDB in PubChem.

Common to all: host cell toxicity; cells: BCBL-1; endpoint: CC50

An empty or dashed field is not shown.

compound,read by,result
CCCCCCCC/C=C\CCCCCCCOCCCOP1(=O)CO[C@@H](Cn2ccc(N)nc2=O)CO1,-,>0.9 µM
O=c1[nH]c(=O)n([C@H]2C[C@H](O)[C@@H](CO)O2)cc1-c1ccc(Br)s1,cell count,>500 µM
CCCCCCCC/C=C\CCCCCCCOCCCOP(=O)(O)CO[C@H](CO)Cn1ccc(N)nc1=O,-,>1.5 µM
O=c1[nH]c(=O)n([C@H]2C[C@H](O)[C@@H](CO)O2)cc1/C=C/Cl,cell count,>70 µM
Nc1nc2c(ncn2/C=C2/CC2(CO)CO)c(=O)[nH]1,-,125 µM
Nc1ccn(C[C@H]2COP(=O)(O)CO2)c(=O)n1,-,>166 µM
O=C(NCc1ccc(Cl)cc1)c1cn2c3c(cc(CN4CCOCC4)cc3c1=O)OC(c1cccnc1)C2,MTS,>18.8 µM
O[C@@H]1[C@H](O)[C@H](O)CO[C@H]1n1c(Br)nc2cc(Cl)c(Cl)cc21,-,>126 µM
CCCCCCCCCCCCCCCCCCOCCCOP1(=O)CO[C@@H](Cn2ccc(N)nc2=O)CO1,-,>1 µM
CC(C)Nc1nc2cc(Cl)c(Cl)cc2n1[C@H]1O[C@@H](CO)[C@H](O)[C@@H]1O,-,>80 µM
COc1nc(N)nc2c1ncn2/C=C1/CC1(CO)CO,-,159 µM
Cn1cc(C(=O)NCc2ccc(Cl)cc2)c(=O)c2c1SC(CN1CCOCC1)C2,MTS,>23.1 µM
O=c1[nH]c(=O)n([C@H]2C[C@H](O)[C@@H](CO)O2)cc1I,cell count,4 µM
C=CCOc1nc(N)nc2c1ncn2/C=C1/C[C@@H]1CO,-,118 µM
Nc1nc(=O)n([C@@H]2O[C@H](CO)[C@@H](O)[C@@H]2F)cc1I,cell count,49 µM
CCCCCOc1nc(N)nc2c1ncn2/C=C1/C[C@@H]1CO,-,109 µM

2 of the rows above, restated:

compound,read by,result
O=C(NCc1ccc(Cl)cc1)c1cn2c3c(cc(CN4CCOCC4)cc3c1=O)OC(c1cccnc1)C2,MTS,>18.8 µM
CC(C)Nc1nc2cc(Cl)c(Cl)cc2n1[C@H]1O[C@@H](CO)[C@H](O)[C@@H]1O,-,>80 µM

CCn is the concentration with n% toxicity to the cells. Rows are shuffled and stem from different studies.